One may read the Km as the substrate concentration at which the rate is half of its maximum. The term Vmax denotes the top rate of the reaction or transport when substrate is in excess.

The data set addresses GST-SNAP25bHA (GST fusion of human SNAP25b with a C-terminal HA epitope) (UniProt P60880).

As to “BoNT/A holotoxin (botulinum neurotoxin type A)”, the Kcat came to 1 s⁻¹, the Kcat/Km turned out to be 20000 M⁻¹ s⁻¹, the Km was found to be 64 µM and the Vmax came to 1.2 µM/min/mg.
